A mixed list of measured activities; the numbers were collected in NIAID ChemDB.

All rows: toxicity to cultured cells; cell line: HFF; endpoint: CC50

CCn: concentration that lowers growth or viability of the cells by n%. Rows are shuffled and stem from different studies.

| smiles | result |
|---|---|
| OC[C@H]1O[C@@H](n2c(Cl)nc(Cl)c2Cl)[C@H](O)[C@H]1O | >100 µM |
| CCOC(=O)C1C(c2ccccc2)CC(c2ccc(Cl)cc2)=CC12NCCN2 | 0.1279 µM |
| CO[C@H]1O[C@@H]2O[C@@]3(C)CC[C@H]4[C@H](C)CC[C@@H]([C@H]1C)[C@@]24OO3 | 220 µg/mL |
| OC[C@H]1O[C@@H](n2cnc3cc(Cl)c(Cl)cc32)[C@H](O)[C@@H]1O | 24 µM |
| N#Cc1cn([C@H]2C[C@H](O)[C@@H](CO)O2)c2ncnc(N)c12 | 66 µM |
| COC(=O)[C@H](C)NP(=O)(OC[C@@H]1C[C@]12C[C@@H]2n1cnc2c(N)ncnc21)Oc1ccccc1 | 100 µM |
| O=C1C(c2c(O)[nH]c3ccc(S(=O)(=O)O)cc23)=Nc2ccccc21 | >320 µg/mL |
| Nc1ccn([C@@H]2C[C@@H](O)[C@H](CO)O2)c(=O)n1 | >60 µM |
| OC[C@H]1O[C@@H](n2c(Br)nc(Cl)c2Cl)[C@H](O)[C@@H]1O | >100 µM |
| COC(=O)[C@H](C)NP(=O)(OCC1C/C1=C/n1cnc2c(N)ncnc21)Oc1ccccc1 | 4.3 µM |
| Nc1nc2c(ncn2[C@H]2C[C@@]23C[C@H]3CO)c(=O)[nH]1 | >100 µM |
| Cc1nc2n(c(=O)c1CCN1CCC(c3noc4cc(F)ccc34)CC1)CC(O)CC2 | 134 µg/mL |
| C[C@@H]1CC[C@H]2[C@@H](C)C(=O)O[C@@H]3OC4(C)CC[C@@H]1[C@]32OO4 | >320 µg/mL |
| CCC[CH2][Sn+2][CH2]CCC | 1.2 µg/mL |
| C=C1CCCC2[C@@H](CCC3(C)CCC([C@@H](C)C(=O)O)OO3)[C@H](C)CC[C@@]12C | <0.392 µM |
| OC[C@H]1O[C@@H](n2c(Cl)nc3nc4cc(Cl)c(Cl)cc4cc32)[C@H](O)[C@@H]1O | 21 µM |
| OCC(CO)OCn1c(Br)nc(Br)c1Br | >100 µM |
| N#CCCn1c2ccccc2c2c3c(c4c5ccccc5[nH]c4c21)C(=O)NC3 | >0.1 µM |
| Nc1nc(NC2CC2)c2ncn(C=C3CC3CO)c2n1 | 327 µM |
| Nc1nc(Cl)nc2c1ncn2/C=C1\CC1CO | >100 µM |
| Nc1nc2c(ncn2[C@H]2C[C@@]23C[C@@H]3CO)c(=O)[nH]1 | >100 µM |
| COC(=O)[C@H](C)NP(=O)(OC[C@@H]1C[C@]12C[C@@H]2n1cnc2c(N)ncnc21)Oc1ccccc1 | 95 µM |
| OC[C@H]1O[C@@H](n2c(Cl)nc3cc(Cl)c(Cl)cc32)[C@H](O)[C@@H]1O | 238 µM |
| NC(=S)c1cn([C@@H]2O[C@H](CO)[C@H](O)[C@H]2O)c2ncnc(N)c12 | 0.6 µM |
| Brc1nc(Br)c(Br)[nH]1 | 75 µM |
| N#Cc1cn([C@@H]2O[C@H](CO)[C@@H](O)[C@@H]2Br)c2ncnc(N)c12 | 181 µM |
| CCOC(=O)C1C(c2ccc(OC)cc2)CC(c2ccccc2)=CC12NCCN2 | 0.1279 µM |
| Nc1ccn([C@@H]2C[C@@H](O)[C@H](CO)O2)c(=O)n1 | >100 µM |
| O[C@]12C=C(c3nccc4c3[nH]c3ccccc34)[C@@H]3CCN(CCCC/C=C/CC1)C[C@@]31C[C@@H]3/C=C\CCCCN3C12 | >0.1 µM |
| CCOC(=O)c1cc2ccccc2nc1C | >300 µM |
| CCOC(=O)C1C(c2ccc(C)cc2)CC(c2ccccc2)=CC12NCCN2 | 0.1279 µM |
| COC(=O)[C@H](C)NP(=O)(OC[C@H]1C/C1=C/n1cnc2c(N)nc(N)nc21)Oc1ccccc1 | 121 µM |
| N#Cc1cn([C@@H]2O[C@H](CO)[C@@H](O)[C@@H]2N=[N+]=[N-])c2ncnc(N)c12 | 55 µM |
| OC[C@H]1O[C@@H](n2c(Cl)nc3cc4cc(Cl)c(Cl)cc4cc32)[C@H](O)[C@@H]1O | 3.2 µM |
| C[CH2][Sn]([Cl])([Cl])[CH2]C.c1ccc(-c2nc3ccccc3[nH]2)nc1 | 11 µg/mL |
| CC1=C(C(=O)NCc2ccc(C(F)(F)F)cc2)OC2OC3(C)CC[C@H]4[C@H](C)CC[C@@H]1[C@@]24OO3 | 169 µM |
| OC[C@H]1O[C@@H](n2c(Br)nc(Br)c2Br)[C@@H](O)[C@@H]1O | >100 µM |
| CC[C@H]1OC(=O)[C@H](C)C(=O)[C@H](C)[C@@H](O[C@@H]2O[C@H](C)C[C@H](N(C)C)[C@H]2O)[C@](C)(OC)C[C@@H](C)C(=O)[C@H](C)[C@H]2N(CCCCn3cnc(-c4cccnc4)c3)C(=O)O[C@]12C | >25 µg/mL |
| CC1=C(C(=O)NCc2ccc(C)cc2)OC2OC3(C)CC[C@H]4[C@H](C)CC[C@@H]1[C@@]24OO3 | 72 µM |
| COC(=O)C(C)NOP(OC[C@H]1C/C1=C/n1cnc2c(N)[nH]c(=O)nc21)Oc1ccccc1 | >100 µM |
| O=Nc1c(-c2c(O)[nH]c3ccc(S(=O)(=O)O)cc23)[nH]c2ccccc12 | >320 µg/mL |
| Nc1c(S(=O)(=O)O)cc(Nc2ccc(S(=O)(=O)O)c(Nc3nc(Cl)nc(Cl)n3)c2)c2c1C(=O)c1ccccc1C2=O | 280 µM |
| NC(=S)c1cn([C@@H]2O[C@H](CO)[C@@H](O)[C@@H]2O)c2ncnc(N)c12 | 29 µM |
| Nc1ncnc2c1ncn2[C@@H]1CC(F)(F)[C@@H](O)[C@H]1O | 84 µM |
| CCC(=O)CCCCC[C@@H]1NC(=O)[C@H]2C[C@H](C)CN2C(=O)C(Cc2ccccc2)NC(=O)[C@@](C)(CC)NC1=O | >2000 µM |
| O=C(CCCN1CCC(O)(c2ccc(Cl)cc2)CC1)c1ccc(F)cc1 | 103 µg/mL |
| CC[C@]1(C)NC(=O)[C@H](CCCCCC(=O)[C@H](C)O)NC(=O)[C@H]2C[C@H](C)CN2C(=O)C(Cc2ccccc2)NC1=O | 0.1279 µM |
| CC1=CC(S(=O)(=O)O)=C(Nc2cccc3c2C(=O)c2cccc(Nc4ccc(C)cc4S(=O)(=O)O)c2C3=O)CC1 | 300 µM |
| C=C1[C@H](CO)[C@@H](O)C[C@@H]1n1cnc2c(=O)[nH]c(N)nc21 | >90 µM |
| OC[C@H]1O[C@@H](n2cnc3cc(Cl)c(Cl)cc32)[C@H](O)[C@@H]1O | 24 µM |
| Cc1cc(C)c(Nc2cc(S(=O)(=O)O)c(N)c3c2C(=O)c2ccccc2C3=O)c(C)c1 | 275 µM |
| NC(=S)c1cn([C@H]2C=C[C@@H](CO)O2)c2ncnc(N)c12 | 18 µM |
| O=C1C(c2c(O)[nH]c3cc(Cl)ccc23)=Nc2ccccc21 | >320 µg/mL |
| CCCCCCC[CH2][Sn]([Cl])([Cl])[Cl] | 370 µg/mL |
| CCOC(=O)C1C(c2ccc(OC)cc2)CC(c2ccc(Cl)cc2)=CC12NCCN2 | 0.1279 µM |
| Nc1nc2c(ncn2[C@H]2C[C@]23C[C@@H]3CO)c(=O)[nH]1 | >100 µM |
| C[C@H]1[C@@H](CCCO)O[C@@H]2OC3(C)CC[C@H]4[C@H](C)CC[C@@H]1[C@@]24OO3 | 160 µg/mL |
| Cc1cc2c(s1)Nc1ccccc1N=C2N1CCN(C)CC1 | 100 µg/mL |
| OC[C@H]1O[C@@H](n2c(SCc3ccccc3)nc3cc4cc(Cl)c(Cl)cc4cc32)[C@H](O)[C@@H]1O | >100 µM |
| Cn1c2ccccc2c2c3c(c4c5ccccc5n(CCC#N)c4c21)CNC3=O | >0.1 µM |
| OC[C@H]1O[C@@H](n2c(NC3CC3)nc3nc4cc(Cl)c(Cl)cc4cc32)[C@H](O)[C@@H]1O | >100 µM |
| CCOC(=O)C1C(c2ccc(Cl)cc2)CC(c2ccccc2)=CC12NCCN2 | 0.1279 µM |

A second listing of 5 rows from above:

| smiles | result |
|---|---|
| CCOC(=O)C1C(c2ccc(OC)cc2)CC(c2ccc(Cl)cc2)=CC12NCCN2 | 0.1279 µM |
| OCC(CO)OCn1c(Br)nc(Br)c1Br | >100 µM |
| Nc1nc(NC2CC2)c2ncn(C=C3CC3CO)c2n1 | 327 µM |
| NC(=S)c1cn([C@H]2C=C[C@@H](CO)O2)c2ncnc(N)c12 | 18 µM |
| Nc1c(S(=O)(=O)O)cc(Nc2ccc(S(=O)(=O)O)c(Nc3nc(Cl)nc(Cl)n3)c2)c2c1C(=O)c1ccccc1C2=O | 280 µM |